In this experiment the target is T1, SARS-CoV-2 RBD 417N/484K/501Y (South Africa, B.1.351), purified recombinant (SARS-CoV-2).
T1 construct: range […]
Nature of the experiment: SPR, decoy-Fc captured on protein A/G chip, RBD injected, 1:1 fit. (In general: In SPR one partner is held on a chip, and binding of the other changes the refractive index at the surface.)

B1: ACE2-wt-Fc4 (Fc fusion)
chain: not shown
Consider B1, for which the Kd (usually the constant that tells how readily two partners part at equilibrium) turned out to be 12.2 nM.
